The values below come from patent US8742158B2, “Protease inhibitors” (TaiMed Biologics, Inc., priority 2006, dated 2014).

For one experiment, the target named is HIV-1 Protease (Human immunodeficiency virus type 1 group M subtype B (isolate HXB2) (HIV-1), UniProt P04585). Put plainly: Enzymatic (FRET fluorometric) assay for determining the inhibition constant (Ki) of compounds targeting the HIV protease. The conditions noted are these: for IC50: read-out: IC50 ENZYME HIV-1 Protease.
The next experiment relates to HIV-1 viral strain NL4-3. Put plainly: Anti-viral assay in vitro (MTT, infected MT-4 cells, six days). The experiment is classed as cell-based. The conditions noted are these: read-out: ANTI-HIV-EC50 VIRAL STRAIN NL4-3. How it is done: Anti-Viral and Cytotoxicity Assays In Vitro
• To evaluate the EC50 of our compounds, various drug concentrations are incubated with the infected cell for six days and then the metabolic activity of the cells is monitored by the MTT assay. (See A. J. Japour et al., Antimicrobial Agents and Chemotherapy, 37, 1095-1101, 1993 and R. Pauwels et al. Journal of Virological Methods, 20, 309-321, 1988) • We use the laboratory viral strain NL4.3 as wild type virus and the cell line used is MT-4 which is a T-cell line highly sensitive to HIV-1. We also use some WT clinical strains. To address the resistance issue we assay the inhibitors with NL4.3 mutants which are designed to be resistant to specific commercially available inhibitors. • The same MTT assay is used to evaluate the CCIC50 (cell culture of IC50) of our compounds except that the virus is omitted.

Where [1] appears, read: read-out: KI-CALC ENZYME HIV-1 Protease, calculated Ki.
Where [2] appears, read: read-out: KIGRAPHIC ENZYME HIV-1 Protease, Ki determined graphically.

Read-outs that look alike come from different tables or passages of the source.

As for `CC(C)CN(C(CO)CCCCNC(=O)C(Cc1ccc2ccccc2c1)NS(=O)(=O)c1ccccc1)S(=O)(=O)c1ccc(N)cc1` (stereo not shown), at HIV-1 Protease (setting [1]), the Ki was 16.5 nM. Further, the concentration for a half-maximal effect (EC50) – broadly, the concentration at which the effect is half-maximal – with HIV-1 viral strain NL4-3 was found to be 3200 nM.
On to `CC(C)CN(C(CO)CCCCNC(=O)C(Cc1ccc2ccccc2c1)NS(=O)(=O)c1ccc2c(c1)OCCN2C)S(=O)(=O)c1ccc(N)cc1` (stereo not shown), for which the 50% inhibitory concentration (IC50) (commonly the concentration that gives 50% inhibition) at HIV-1 Protease came out at 4.95 nM. Also, on HIV-1 Protease (setting [1]), the Ki is 5.1 nM. The half-maximal effective concentration (EC50) with HIV-1 viral strain NL4-3 was 0.162 nM.
For the compound `COc1ccc(S(=O)(=O)NC(Cc2ccc3ccccc3c2)C(=O)NCCCCC(CO)N(CC(C)C)S(=O)(=O)c2ccc(N)cc2)cc1OC` (stereo not shown), at HIV-1 Protease (setting [1]), the Ki is 12.5 nM.
With `COC(=O)NC(C(=O)NCCCCC(CO)N(CC(C)C)S(=O)(=O)c1ccc2c(c1)CCO2)C(c1ccccc1)c1ccccc1` (stereo not shown), the concentration for a half-maximal effect (EC50) in the experiment with HIV-1 viral strain NL4-3 came to 151 nM.
Regarding `CC(C)CN(C(CO)CCCCNC(=O)C(Cc1cccc2ccccc12)NC(=O)N1CCOCC1)S(=O)(=O)c1ccc2c(c1)OCCO2` (stereo not shown), the IC50 on HIV-1 Protease was determined as 2.02 nM. Moreover, on HIV-1 Protease (setting [1]), the Ki was less than 3.8 nM. The half-maximal effective concentration (EC50) with HIV-1 viral strain NL4-3 is more than 50000 nM.
As to `CC(C)CN(C(CO)CCCCNC(=O)C(NC(=O)NCc1cccnc1)C(c1ccccc1)c1ccccc1)S(=O)(=O)c1ccc(N)cc1` (stereo not shown), on HIV-1 Protease, the IC50 was found to be 0.465 nM. The Ki on HIV-1 Protease (setting [1]) is less than 3.8 nM; on HIV-1 Protease (setting [2]), 0.473 nM. Moreover, the EC50 in the experiment with HIV-1 viral strain NL4-3 turned out to be 171 nM.
Regarding `CC(C)CN(C(CO)CCCCNC(=O)C(NS(=O)(=O)c1ccccc1)C(c1ccccc1)c1ccccc1)S(=O)(=O)c1ccc(N)cc1` (stereo not shown), at HIV-1 Protease, the concentration for half-maximal inhibition (IC50) was found to be 0.436 nM. Also, the Ki at HIV-1 Protease (setting [1]) is less than 3.8 nM; on HIV-1 Protease (setting [2]), 0.492 nM. Besides, the concentration giving a half-maximal response (EC50) in the experiment with HIV-1 viral strain NL4-3 amounted to 61 nM.
On to `CC(C)CN(C(CO)CCCCNC(=O)C(Cc1ccccc1Br)NC(=O)c1ccccn1)S(=O)(=O)c1ccc(N)cc1` (stereo not shown), for which, at HIV-1 Protease, the IC50 worked out at 0.615 nM. In addition, on HIV-1 Protease (setting [2]), the Ki came out at 0.429 nM. The EC50 in the experiment on HIV-1 viral strain NL4-3 stood at 197 nM.
As for `CC(C)CN(C(CO)CCCCNC(=O)C(Cc1ccc2ccccc2c1)NS(=O)(=O)c1cccs1)S(=O)(=O)c1ccc(N)cc1` (stereo not shown), at HIV-1 Protease (setting [1]), the Ki was 7.9 nM. Moreover, in the experiment with HIV-1 viral strain NL4-3, the EC50 came to 3000 nM.
On to `COC(=O)N[C@H](C(=O)NCCCC[C@@H](C(=O)O)N(CC(C)C)S(=O)(=O)c1ccc(N)cc1)C(c1ccccc1)c1ccccc1`, for which, at HIV-1 Protease, the IC50 came to 1.08 nM. For the same compound, the Ki at HIV-1 Protease (setting [2]) was found to be 0.79 nM. Further, the EC50 in the experiment on HIV-1 viral strain NL4-3 is more than 50000 nM.
Turning to `Cc1cn(CC(=O)NC(Cc2ccc3ccccc3c2)C(=O)NCCCCC(CO)N(CC(C)C)S(=O)(=O)c2ccc(N)cc2)c(=O)[nH]c1=O` (stereo not shown), the half-inhibitory concentration (IC50) at HIV-1 Protease was 0.878 nM. Besides, the Ki at HIV-1 Protease (setting [1]) is less than 3.8 nM; on HIV-1 Protease (setting [2]), 0.788 nM. Further, the concentration giving a half-maximal response (EC50) with HIV-1 viral strain NL4-3 was 1380 nM.
For the compound `CC(C)CN(C(CO)CCCCNC(=O)C(Cc1ccc2ccccc2c1)NS(=O)(=O)c1ccc(F)cc1F)S(=O)(=O)c1ccc(N)cc1` (stereo not shown), the Ki on HIV-1 Protease (setting [1]) was 54.6 nM.
In the case of `CC(C)CN(C(CO)CCCCNC(=O)C(Cc1ccccc1Br)NC(=O)c1cccnc1)S(=O)(=O)c1ccc(N)cc1` (stereo not shown), at HIV-1 Protease, the half-inhibitory concentration (IC50) was determined as 0.372 nM. The Ki on HIV-1 Protease (setting [2]) was determined as 0.119 nM. In the experiment on HIV-1 viral strain NL4-3, the EC50 is 58 nM.
Take `Cc1cnc(C(=O)NC(Cc2ccccc2Br)C(=O)NCCCCC(CO)N(CC(C)C)S(=O)(=O)c2ccc(N)cc2)cn1` (stereo not shown): at HIV-1 Protease, the IC50 was 0.836 nM. For the same compound, the Ki on HIV-1 Protease (setting [1]) was less than 3.8 nM; on HIV-1 Protease (setting [2]), 0.491 nM. The EC50 in the experiment with HIV-1 viral strain NL4-3 was 135 nM.
In the case of `CC(C)CN([C@@H](CCCCNC(=O)[C@H](Cc1cccc2ccccc12)NC(=O)N1CCOCC1)C(N)=O)S(=O)(=O)c1ccc(N)cc1`, in the experiment with HIV-1 viral strain NL4-3, the EC50 was 70 nM.
For the compound `CC(C)CN(C(CO)CCCCNC(=O)C(Cc1cccc2ccccc12)NC(=O)N1CCOCC1)S(=O)(=O)c1ccc2c(c1)CCO2` (stereo not shown), at HIV-1 Protease, the IC50 turned out to be 0.995 nM. In addition, the Ki was less than 3.8 nM at HIV-1 Protease (setting [1]) and 0.788 nM at HIV-1 Protease (setting [2]). Besides, in the experiment on HIV-1 viral strain NL4-3, the EC50 was 524 nM.
